Source: PubChem BioAssay AID624099 (ICCB-Longwood, 2012)

Aim: 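Knock-downs relieving repression by E2 of an HPV18 LCR luciferase reporter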 (primary screen)
System: human C33A cervical carcinoma cells (HPV-negative) stably expressing BPV1 E2 and an HPV18 LCR luciferase reporter
Reagents: siRNA pool against human genes, 40 nM
Duration: 72 h
Measurement: 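Per-well luciferase luminescence, z-scored on each plate against the plate mean and SD with control wells left out, then averaged across three replicate plates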
Direction: mean z-score and z-score: higher = stronger reporter signal, weaker E2 silencing
Call rule: 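Mean z ≥ 2 together with z ≥ 2 in two or more of the three replicates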
Here is an unselected part of about 21,000 deposited reagents. Of all reagents, 497 (2.4%) are marked active. 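Higher z means weaker E2 silencing; only reporter increases were scored, and knock-downs that hurt cell survival may mask genuine repressor factors.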 Unmarked entries are inactive. Reagents against one gene are numbered here.

The opening 5 records as a preview:
no.	Gene	reagent no.	mean z-score	z-score, replicate A	z-score, replicate B	z-score, replicate C
1	SERF2 (small EDRK-rich factor 2)	1	1.1	1.42	1.2	0.67
2	SCG5 (secretogranin V)	1	0.77	1.22	0.73	0.37
3	CNN1 (calponin 1)	1	0.09	0.41	-0.45	0.33
4	HS3ST5 (heparan sulfate-glucosamine 3-sulfotransferase 5)	1	-0.71	-0.61	-0.81	-0.57
5	ADAM21 (ADAM metallopeptidase domain 21)	1	0.52	0.67	0.7	0.18

The listing, from the start:
no.	Gene	reagent no.	mean z-score	z-score, replicate A	z-score, replicate B	z-score, replicate C
1	SERF2 (small EDRK-rich factor 2)	1	1.1	1.42	1.2	0.67
2	SCG5 (secretogranin V)	1	0.77	1.22	0.73	0.37
3	CNN1 (calponin 1)	1	0.09	0.41	-0.45	0.33
4	HS3ST5 (heparan sulfate-glucosamine 3-sulfotransferase 5)	1	-0.71	-0.61	-0.81	-0.57
5	ADAM21 (ADAM metallopeptidase domain 21)	1	0.52	0.67	0.7	0.18
6	STRN3 (striatin 3)	1	0.19	-0.09	-0.08	0.73
7	CETN1 (centrin 1)	1	-0.03	-0.4	-0.03	0.35
8	RPL5P29 (ribosomal protein L5 pseudogene 29)	1	-0.83	-0.63	-0.9	-0.97
9	GSDME (gasdermin E)	1	0	0.15	0.02	-0.17
10	LOC221875 (retired record)	1	-0.15	-0.32	-0.18	0.04
11	DYNC1H1 (dynein cytoplasmic 1 heavy chain 1)	1	-1.31	-1.31	-1.4	-1.21
12	ZFTRAF1 (zinc finger TRAF-type and ring finger containing 1)	1	1.58	1.72	1.68	1.35
13	GPC2 (glypican 2)	1	0.09	0.19	0.03	0.06
14	CYP1B1-AS1 (CYP1B1 antisense RNA 1)	1	0.92	0.91	0.83	1.02
15	FKBP6 (FKBP prolyl isomerase family member 6 (inactive))	1	0.04	0.23	0.12	-0.22
16	ANKRD31 (ankyrin repeat domain 31)	1	-1.86	-1.71	-1.74	-2.12
17	ARFGEF1 (ARF guanine nucleotide exchange factor 1)	1	-1.32	-1.33	-1.3	-1.33
18	OR7A5 (olfactory receptor family 7 subfamily A member 5)	1	-0.15	-0.12	-0.07	-0.26
19	ARX (aristaless related homeobox)	1	0.13	0.1	0.13	0.17
20	LOC392670 (retired record)	1	-0.52	-0.58	-0.64	-0.35
21	PIK3R6 (phosphoinositide-3-kinase regulatory subunit 6)	1	-0.03	-0.04	-0.07	0.02
22	KRTAP10-12 (keratin associated protein 10-12)	1	0.09	-0.18	0.42	0.02
23	RPS23 (ribosomal protein S23)	1	-1.65	-1.57	-1.85	-1.53
24	PEX11A (peroxisomal biogenesis factor 11 alpha)	1	-0.1	-0.47	0.16	0.01
25	ZNF433 (zinc finger protein 433)	1	0.57	0.65	0.33	0.74
26	FBXO27 (F-box protein 27)	1	-1.31	-1.52	-1.11	-1.28
27	GDF7 (growth differentiation factor 7)	1	1.36	1.49	1.31	1.27
28	LIX1L (limb and CNS expressed 1 like)	1	-0.22	-0.44	0.04	-0.27
29	HEY2	1	-1.27	-1.22	-1.61	-0.99
30	XKR5 (XK related 5)	1	-2.47	-3.13	-2.35	-1.93
31	NDUFB5 (NADH:ubiquinone oxidoreductase subunit B5)	1	-0.84	-0.83	-0.56	-1.12
32	L3HYPDH (trans-L-3-hydroxyproline dehydratase)	1	-0.42	-0.58	-0.21	-0.46
33	KRT25 (keratin 25)	1	-1.7	-1.63	-1.68	-1.78
34	PPIF (peptidylprolyl isomerase F)	1	-0.11	-0.58	0.98	-0.74
35	TM4SF18 (transmembrane 4 L six family member 18)	1	0.34	0.56	0.45	-0.01
36	CHST10 (carbohydrate sulfotransferase 10)	1	1.23	1.49	1.17	1.04
37	C4orf50 (chromosome 4 open reading frame 50)	1	-0.65	-0.63	-0.52	-0.8
38	NPBWR2 (neuropeptides B and W receptor 2)	1	0.39	0.35	0.34	0.48
39	OPA1 (OPA1 mitochondrial dynamin like GTPase)	1	0.13	0.04	0.07	0.28
40	ZP1 (zona pellucida glycoprotein 1)	1	-0.88	-0.93	-0.81	-0.89
41	LINC00635 (long independently transcribed non-coding RNA 635)	1	-0.12	-0.61	0.3	-0.06
42	FOS (Fos proto-oncogene, AP-1 transcription factor subunit)	1	0.13	0.98	-0.35	-0.24
43	LOC401057 (retired record)	1	0.52	0.74	0.47	0.34
44	SET (SET nuclear proto-oncogene)	1	-0.53	-0.53	-0.45	-0.61
45	STK35 (serine/threonine kinase 35)	1	1.25	1.27	1.18	1.31
46	WDR13 (WD repeat domain 13)	1	-0.43	-0.12	-0.55	-0.64
47	RDH11 (retinol dehydrogenase 11)	1	-0.59	-0.79	-0.27	-0.71
48	ADAMTSL1 (ADAMTS like 1)	1	0.13	0.1	0.2	0.08
49	ADAMTSL1 (ADAMTS like 1)	2	0.51	0.04	0.97	0.39
50	DDX47 (DEAD-box helicase 47)	1	1.85	2.15	1.77	1.64
51	REN (renin)	1	-0.08	0.07	-0.05	-0.26
52	SPPL3 (signal peptide peptidase like 3)	1	-0.86	-0.97	-0.59	-1.01
53	SNURF (SNRPN upstream open reading frame)	1	-0.05	0.06	0.02	-0.23
54	SIGIRR (single Ig and TIR domain containing)	1	-1.54	-1.77	-1.74	-1.11
55	DPH7 (diphthamide biosynthesis 7)	1	-1.39	-1.78	-1.29	-1.11
56	ZBTB6 (zinc finger and BTB domain containing 6)	1	-0.05	-0.14	0.32	-0.32
57	QRFP (pyroglutamylated RFamide peptide)	1	0.32	0.85	0.07	0.05
